Results of unrelated studies side by side (data: NIAID ChemDB).

All rows: tests in culture; organism: Aspergillus niger; endpoint: MIC

Conditions beyond the fields shown may differ between rows.

C[C@H]1N(C(=O)c2ccc(C(F)(F)F)cc2)CCO[C@@]1(Cn1cncn1)c1ccc(F)cc1F ; strain or isolate: Isolate 1 ; value: 50 µg/mL
COC(=O)C1CC(=O)N(c2cccc(OC3=C(Cl)C(=O)c4ccccc4C3=O)c2)C1 ; strain or isolate: VCM F-1119 ; value: 7.8 µg/mL
O=C(NN1C(=O)/C(=C\c2cccc(Br)c2)SC1c1cccc(Br)c1)c1ccc(-c2ccccc2)cc1 ; strain or isolate: MTCC 8189 ; value: 1.56 µg/mL
COc1c(CN(C)C)cccc1C1OC(c2ccncc2)=NN1C(C)=Nc1ccc(F)cc1 ; strain or isolate: MTCC 8189 ; value: 12.5 µg/mL
O=C(NN1C(=O)/C(=C\c2ccccc2)SC1c1ccc(F)cc1)c1ccc(-c2ccccc2)cc1 ; strain or isolate: MTCC 8189 ; value: 12.5 µg/mL
C=C1C(=O)O[C@@H]2/C=C(\CO)CCC=C(C)C[C@H](OC(=O)/C(=C/COC(C)=O)CO)[C@@H]12 ; strain or isolate: ATCC 6275 ; value: 0.03 µg/mL
COc1ccc(C2C(C#N)=C(N)Oc3c2c(C)nn3-c2ccccc2)cc1 ; strain or isolate: MTCC 282 ; value: 1000 µg/mL
O=C(c1ccc([N+](=O)[O-])cc1)n1c(-c2ccccc2[N+](=O)[O-])nc2ccccc21 ; value: 18 µg/mL
Cc1cc(C)cc(/C=C2\SC(=O)N(CCC(=O)Nc3ccc(C)cc3Cl)C2=O)c1 ; value: >100 µg/mL
COc1c(CN(C)C)cccc1C1OC(c2ccncc2)=NN1C(C)=Nc1cccc(F)c1 ; strain or isolate: MTCC 8189 ; value: 3.12 µg/mL
Cc1nn(-c2ccccc2)c2c1C(c1ccc(O)cc1)c1c(nc(=O)[nH]c1N)O2 ; strain or isolate: MTCC 282 ; value: >1000 µg/mL
CC[C@@]1(O)C[C@H](O[C@H]2C[C@H](N(C)C)[C@H](O[C@H]3C[C@H](O)[C@H](O[C@H]4CCC(=O)[C@H](C)O4)[C@H](C)O3)[C@H](C)O2)c2c(cc3c(c2O)C(=O)c2c(O)cccc2C3=O)[C@H]1C(=O)OC ; strain or isolate: NCPF 7162 ; value: >100 µM
Cc1nn(-c2ccccc2)c2c1C(c1ccc(Cl)cc1)c1c(nc(=S)[nH]c1N)O2 ; strain or isolate: MTCC 282 ; value: >1000 µg/mL
COc1ccccc1-c1nc2ccccc2n1C(=O)c1ccc([N+](=O)[O-])cc1 ; value: 33 µg/mL
O=C(CCN1C(=O)S/C(=C\c2ccc(O)cc2O)C1=O)Nc1ccccc1O ; value: 25 µg/mL
O=C(c1ccc([N+](=O)[O-])cc1)n1c(-c2ccccc2Cl)nc2ccccc21 ; value: 17 µg/mL
Cc1nn(-c2ccccc2)c2c1C(c1ccc(Cl)cc1)c1c(nc(=O)[nH]c1N)O2 ; strain or isolate: MTCC 282 ; value: >1000 µg/mL
Cc1ccc(C)c(/C=C2\SC(=O)N(CCC(=O)Nc3ccccc3O)C2=O)c1 ; value: 25 µg/mL
c1ccc(N2COc3c(ccc4ccccc34)C2)cc1 ; strain or isolate: NCIM 545 ; value: 15 µg/mL
COc1ccc(C2c3c(nc(=S)[nH]c3N)Oc3c2c(C)nn3-c2ccccc2)cc1 ; strain or isolate: MTCC 282 ; value: >1000 µg/mL
Cc1ccc(NC(=O)CCN2C(=O)S/C(=C\c3ccccc3F)C2=O)c(Cl)c1 ; value: 12.5 µg/mL
O=C(NN1C(=O)/C(=C\c2cccc([N+](=O)[O-])c2)SC1c1ccccc1)c1ccc(-c2ccccc2)cc1 ; strain or isolate: MTCC 8189 ; value: 1.56 µg/mL
O=C(c1ccccc1Br)n1c(-c2ccc(O)cc2)nc2ccccc21 ; value: 32 µg/mL
COC(=O)[C@H]1[C@@H]2C[C@@H](O[C@@H]3O[C@H](C)[C@@H](O)[C@H](N)[C@@H]3O)/C=C/C=C/C=C/C=C/C=C/C=C/C=C/[C@H](C)[C@@H](O)[C@H](C)[C@H](C)OC(=O)C[C@H](O)C[C@H](O)[C@@H](O)CC[C@H](O)C[C@H](O)C[C@](O)(C[C@@H]1O)O2 ; strain or isolate: NCPF 7162 ; value: 0.32 µM
Cc1ccc(/C=C2\SC(=O)N(CCC(=O)Nc3ccccc3O)C2=O)c(C)c1 ; value: 25 µg/mL
O=C1C(Cl)=C(Oc2cccc(N3CC(C(=O)N/N=C/c4ccc(Br)cc4)CC3=O)c2)C(=O)c2ccccc21 ; strain or isolate: VCM F-1119 ; value: 3.9 µg/mL
Cc1cc(NC(=O)CCN2C(=O)S/C(=C\c3ccc(Cl)cc3)C2=O)ccc1Cl ; value: 25 µg/mL
COc1cccc2c1C(=O)c1c(O)c3c(c(O)c1C2=O)C[C@@](O)(C(=O)CO)C[C@@H]3O[C@H]1C[C@H](N)[C@@H](O)[C@H](C)O1 ; strain or isolate: NCPF 7162 ; value: >100 µM
COc1ccc(C2c3c(nc(=O)[nH]c3N)Oc3c2c(C)nn3-c2ccccc2)cc1 ; strain or isolate: MTCC 282 ; value: 250 µg/mL
Cc1cc(=O)oc2c(C=Nc3cccc4cccc(N=Cc5c(O)ccc6c(C)cc(=O)oc56)c34)c(O)ccc12 ; strain or isolate: MTCC 1881 ; value: 10 µg/mL
COc1cccc(N2COc3c(ccc4ccccc34)C2)c1 ; strain or isolate: NCIM 545 ; value: 10 µg/mL
Cc1ccc(NC(=O)CCN2C(=O)S/C(=C\c3ccc(C)cc3C)C2=O)cc1 ; value: 50 µg/mL
O=C(c1ccc([N+](=O)[O-])cc1)n1c(-c2cccc(Cl)c2)nc2ccccc21 ; value: 33 µg/mL
Cc1ccc(N2COc3c(ccc4ccccc34)C2)cc1 ; strain or isolate: NCIM 545 ; value: 25 µg/mL
Cc1nn(-c2ccccc2)c2c1C(c1ccc(O)cc1)c1c(nc(=S)[nH]c1N)O2 ; strain or isolate: MTCC 282 ; value: 250 µg/mL
C=C[C@]1(C)C[C@H](OC(=O)C(=C)C(O)COC(C)=O)[C@H]2C(=C)C(=O)O[C@@H]2[C@H]1C(=C)CO ; strain or isolate: ATCC 6275 ; value: 0.5 µg/mL
O=C(c1ccccc1Br)n1c(-c2ccc([N+](=O)[O-])cc2)nc2ccccc21 ; value: 15 µg/mL
C=C(C(=O)O[C@H]1CC(C)=CCC/C(CO)=C/[C@H]2OC(=O)C(=C)[C@H]12)C(O)COC(C)=O ; strain or isolate: ATCC 6275 ; value: 0.125 µg/mL
O=C(c1ccc([N+](=O)[O-])cc1)n1c(-c2cccc([N+](=O)[O-])c2)nc2ccccc21 ; value: 18 µg/mL
Cc1nn(-c2ccccc2)c2c1C(c1cccc(Cl)c1)c1c(nc(=O)[nH]c1N)O2 ; strain or isolate: MTCC 282 ; value: 1000 µg/mL